Measured values from PubChem BioAssay AID603 (National Center for Advancing Translational Sciences (NCATS), 2007).
Several values for one entry are separate records, joined by “and”; a condition that tells them apart may be missing. Identical values can stand only once. Only a part is listed here, and it is no random draw. Activity calls are given as the source filed them. The call rests on the fitted dose curve; in most records, active means well fitted curve in the direction sought with a large enough effect; inconclusive means small, poorly fitted or top-dose-only effect; inactive means flat fitted curve, though single readings scatter.

Test system: DNA polymerase III holoenzyme (E. coli)
Assay: qHTS Assay for Inhibitors of DNA Polymerase III Holoenzyme System
Details: reconstituted DNA polymerase III holoenzyme replication, biochemical
Experimental: NIH Molecular Libraries Screening Centers Network [MLSCN]
NIH Chemical Genomics Center [NCGC]
Assay Provider: Charles McHenry, University of Colorado
E. coli DNA polymerase III holoenzyme complex was assayed for DNA production by fluorescent detection of the double-stranded DNA product with PicoGreen dye. The holoenzyme complex was reconstituted from the following purified protein components: DNA Polymerase III, beta subunit processivity factor, SSB single-stranded DNA binding protein, and Primase. Single-stranded, circular M13Gori was used as a substrate with dNTPs and NTPs also supplied to the substrate reagent. Compounds from the NCGC collection were incubated with the holoenzyme mixture for 15 min at room temperature to allow binding to occur, and then the reaction was started by the addition of substrate. After 30 min incubation at room temperature, PicoGreen solution containing EDTA was added to stop the reaction and to visualize the double-stranded DNA produced. Reaction progress was measured in a ViewLux CCD imager in fluorescence intensity mode by using 480 nm excitation and 540 nm emission filter set.
NCGC Assay Protocol Summary:
Buffer. 50 mM Hepes-KOH, pH 7.5, 5 % Glycerol, 0.02% NP40, 30 mM potassium;
glutamate, 1.5 mM Magnesium Acetate, 16 uM TCEP.
Buffer in columns 3 and 4 as negative control (no enzyme).
Substrate solution: 5 uM each dATP, dGTP, dCTP and TTP, 50 uM each GTP, CTP, UTP and 200 uM ATP, 1.4 nM M13gori (final concentrations).
Enzyme: 154 nM SSB, 2 nM Primase, 1 nM Beta, 0.35 nM Pol III (final concentrations).
PicoGreen/EDTA: 10 mM Tris-HCl, 10 mM EDTA, 5 uM PicoGreen (final concentrations).
Control titration: ChemBridge 5805060 (from 10 mM, then 1:2, in duplicate) was pin-transferred to upper half of column 2.
Three uL of holoenzyme mixture were dispensed to 1536-well Greiner black solid bottom plates. Compounds and controls (23 nL) were transferred via Kalypsys PinTool. The plates were incubated for 15 min at room temperature, and then 1 uL of substrate solution was added to start the reaction. After room temperature incubation for 35 minutes, 1 uL of PicoGreen solution was added to each well and the plates were read 480 nm excitation and 540 nm emission using ViewLux (Perkin-Elmer) High-throughput CCD imager and fluorescence protocol settings.
Keywords: NIH Roadmap, MLSCN, MLI, MLSMR, qHTS, NCGC, DNA Polymerase III, DNAPol3, DNAPoly3, DNA replication targets

[1] = at 57.1 µM (top of the series) unless noted
On the % scale 0 is the no-effect control and ±100 the full control effect.

CN(C(=O)Cc1ccccc1)[C@@H]1CC[C@@]2(CCCO2)C[C@H]1N1CCCC1
activity change, negative = inhibition [1]: inactive: -1.9%

CCc1nc2c(n1)c1c(non1O)c1c2no[n+]1[O-]
activity change, negative = inhibition [1]: inactive: -8%

O=C(CO)Nc1ccc([As](=O)(O)O)cc1
activity change, negative = inhibition [1]: inactive: -9.9% [at 11.4 µM]

O=[N+]([O-])c1ccc(C[As](=O)(O)O)cc1
activity change, negative = inhibition [1]: inactive: -8.3% [at 11.4 µM]

NCC[C@@H](N)CSP(=O)(O)O
activity change, negative = inhibition [1]: inactive: -1.7% [at 11.4 µM]

Cc1c2non([O-])c-2c(C)[n+](=O)[n+]1[O-]
activity change, negative = inhibition [1]: inactive: -13.6%

CN(C(=O)Cc1ccc(Cl)c(Cl)c1)[C@H]1CCCC[C@@H]1N1CCCC1
activity change, negative = inhibition [1]: inactive: -3% and inactive: -5.8% and inactive: -2.7%

C(Cc1nn[nH]n1)c1nn[nH]n1
activity change, negative = inhibition [1]: inactive: -1.4% [at 11.4 µM]

[N-]=[N+]=NCC(O)CN=[N+]=[N-] (configuration not stated)
activity change, negative = inhibition [1]: inactive: -8.3% [at 11.4 µM]

COC(=O)c1cc2c(s1)N=C(c1ccccc1)N(C)P2(=O)N1CCOCC1 (configuration not stated)
activity change, negative = inhibition [1]: inactive: -1.7%

O=P1(Nc2nc3ccc(Cl)cc3s2)COc2ccccc2O1 (configuration not stated)
activity change, negative = inhibition [1]: inactive: 3.5%

c1nnnn1CCn1cnnn1
activity change, negative = inhibition [1]: inactive: -0.5%

O=P(Nc1nccs1)(c1ccccc1)c1ccccc1
activity change, negative = inhibition [1]: inactive: 2.8%

C[C@@H](O)COc1ccc([As](=O)(O)O)cc1N
activity change, negative = inhibition [1]: inactive: -6% [at 11.4 µM]

CN1CCC[C@H](OC(=O)C(c2ccccc2)c2ccccc2)C1
activity change, negative = inhibition [1]: inactive: -9.7% [at 11.4 µM]

Cc1cc([N+](=O)[O-])cc([N+](=O)[O-])c1O
activity change, negative = inhibition [1]: inactive: -0.5%

[N-]=[N+]=Nc1ccc([As](=O)(O)O)cc1
activity change, negative = inhibition [1]: inactive: -0.8% [at 11.4 µM]

O=C(OC1CN2CCC1CC2)c1cccc(Cl)c1 (configuration not stated)
activity change, negative = inhibition [1]: inactive: -4.3%

Cc1nn(-c2ccccc2)c2c1P(=O)(N1CCOCC1)N(C)C(c1ccccc1)=N2 (configuration not stated)
activity change, negative = inhibition [1]: inactive: -8.1%

O=P1(Nc2ccc(Br)cn2)COc2ccccc2OC1
activity change, negative = inhibition [1]: inactive: 9.4%

O=P1(Nc2ncccn2)COc2ccccc2OC1
activity change, negative = inhibition [1]: inactive: -4.6%

Clc1n[nH]nc1-c1nn[nH][15n]1
activity change, negative = inhibition [1]: inactive: -7.6%

O=P1(Nc2ccccn2)COc2ccccc2OC1
activity change, negative = inhibition [1]: inactive: -4.6%

CN(CCCl)Cc1cc(Cl)c(NC2=NCCN2)c(Cl)c1
activity change, negative = inhibition [1]: inactive: -5.7%

CN(C(=O)Cc1ccc(Cl)c(Cl)c1)[C@@H]1CCCC[C@H]1N1CCCC1
activity change, negative = inhibition [1]: inactive: -3.4% [middle of 4 runs]

CN(C(=O)Cc1ccc(Cl)c(Cl)c1)[C@@H]1CC[C@@]2(CCCO2)C[C@H]1N1CCCC1
activity change, negative = inhibition [1]: inactive: -3.6%

NS(=O)(=O)Cc1ccc([As](=O)(O)O)cc1
activity change, negative = inhibition [1]: inactive: 7.6% [at 11.4 µM]

O=C(CC(=O)c1ccccc1)O[C@H]1CN2CCC1CC2
activity change, negative = inhibition [1]: inactive: 1.7% [at 11.4 µM]

O=[As](O)(O)c1ccc([As](=O)(O)O)cc1
activity change, negative = inhibition [1]: inactive: -4.3% [at 11.4 µM]

CCOP1(=S)c2c(C)nn(CCC#N)c2N=C(c2ccccc2F)N1C (configuration not stated)
activity change, negative = inhibition [1]: inactive: -2.5%

O=P(Nc1nccs1)(c1ccccc1)c1nc2ccccc2s1 (configuration not stated)
activity change, negative = inhibition [1]: inactive: -3.6%

CCOP1(=S)c2c(C)nn(CCC#N)c2N=C(c2ccc(F)cc2)N1C (configuration not stated)
activity change, negative = inhibition [1]: inactive: 0.9%

NC(=O)Nc1ccc([As](=O)(O)O)cc1
activity change, negative = inhibition (at 25.6 µM (top of the series)): inactive: -4.9% | activity change, negative = inhibition (at 57.1 µM (top of the series)): inactive: -5.6%

O=[As]c1ccc(S(=O)(=O)NCCO)cc1 (configuration not stated)
activity change, negative = inhibition [1]: inactive: -8.7% [at 11.4 µM]

[N-]=[N+]=NCC(N)=O
activity change, negative = inhibition [1]: inactive: -9.6% [at 11.4 µM]

NC(=O)Nc1cc([As](=O)(O)O)cc(I)c1O
activity change, negative = inhibition [1]: inactive: -9.9% [at 11.4 µM]

O=C(OC1CN2CCC1CC2)C12CC3CC(CC(C3)C1)C2 (configuration not stated)
activity change, negative = inhibition [1]: inactive: -1%

O=C(COc1ccccc1)OC1CN2CCC1CC2 (configuration not stated)
activity change, negative = inhibition [1]: inactive: -5.8%

O=C(O)[C@@H](O)c1ccc([As](=O)(O)O)cc1
activity change, negative = inhibition [1]: inactive: 6.2% [at 11.4 µM]

COP1(=S)c2c(C)nn(CCC#N)c2N=C(c2ccc(F)cc2)N1C (configuration not stated)
activity change, negative = inhibition [1]: inactive: -7.9%

CN(N=O)C(=N)N[N+](=O)[O-]
activity change, negative = inhibition [1]: inactive: -2.8%
